Reference: PubChem BioAssay AID624099 (ICCB-Longwood, 2012)

Assay: 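Human genes that papillomavirus E2 requires to repress the HPV18 LCR promoter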 (primary screen)
System: human C33A cervical carcinoma cells (HPV-negative) stably expressing BPV1 E2 and an HPV18 LCR luciferase reporter
Reagent: siRNA pool against human genes, 40 nM
Timing: 72 h
Measured: 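HPV18 LCR reporter light per well, converted to plate-wise z-scores that exclude control wells, and averaged over triplicate plates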
Reading the numbers: mean z-score and z-score: higher = stronger reporter signal, weaker E2 silencing
Hit rule: 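Mean z ≥ 2 together with z ≥ 2 in two or more of the three replicates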
Shown is one part, drawn at random, of about 21,000 reagents tested. In the full data, 497 (2.4%) are marked active. 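Higher z means weaker E2 silencing; only reporter increases were scored, and knock-downs that hurt cell survival may mask genuine repressor factors.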 Reagents against one gene are numbered here.

PERP | mean z-score = -0.92; z-score, replicate A = -0.75; z-score, replicate B = -0.74; z-score, replicate C = -1.28; Call = inactive
PGPEP1L | mean z-score = -1.02; z-score, replicate A = -1.3; z-score, replicate B = -1.49; z-score, replicate C = -0.27; Call = inactive
RAB19 #1 | mean z-score = -1.66; z-score, replicate A = -1.42; z-score, replicate B = -2.03; z-score, replicate C = -1.51; Call = inactive
RAB19 #2 | mean z-score = -2.47; z-score, replicate A = -2.29; z-score, replicate B = -2.76; z-score, replicate C = -2.37; Call = inactive
SLC9A5 | mean z-score = 0.57; z-score, replicate A = 0.47; z-score, replicate B = 0.72; z-score, replicate C = 0.53; Call = inactive
KIF5B | mean z-score = -0.05; z-score, replicate A = -0.04; z-score, replicate B = -0.03; z-score, replicate C = -0.07; Call = inactive
MINK1 | mean z-score = -0.58; z-score, replicate A = -0.59; z-score, replicate B = -0.47; z-score, replicate C = -0.68; Call = inactive
TMEM230 | mean z-score = 0.26; z-score, replicate A = 0.14; z-score, replicate B = 0.19; z-score, replicate C = 0.45; Call = inactive
GPR171 | mean z-score = -0.86; z-score, replicate A = -0.85; z-score, replicate B = -0.88; z-score, replicate C = -0.84; Call = inactive

2 entries from above, ordered by “z-score, replicate C”, ascending:
KIF5B | mean z-score = -0.05; z-score, replicate A = -0.04; z-score, replicate B = -0.03; z-score, replicate C = -0.07; Call = inactive
SLC9A5 | mean z-score = 0.57; z-score, replicate A = 0.47; z-score, replicate B = 0.72; z-score, replicate C = 0.53; Call = inactive

Continued:
ELK1 | mean z-score = 1.17; z-score, replicate A = 1.13; z-score, replicate B = 1.14; z-score, replicate C = 1.23; Call = inactive
OTOP1 | mean z-score = -0.97; z-score, replicate A = -1.07; z-score, replicate B = -1.27; z-score, replicate C = -0.58; Call = inactive
RNF175 | mean z-score = 0.19; z-score, replicate A = 0.06; z-score, replicate B = 0.24; z-score, replicate C = 0.26; Call = inactive
PMM2 | mean z-score = 0.1; z-score, replicate A = 0.1; z-score, replicate B = -0.01; z-score, replicate C = 0.2; Call = inactive
RAMAC | mean z-score = 1.52; z-score, replicate A = 1.46; z-score, replicate B = 1.81; z-score, replicate C = 1.3; Call = inactive
SH2D1B | mean z-score = -0.74; z-score, replicate A = -0.65; z-score, replicate B = -0.78; z-score, replicate C = -0.78; Call = inactive
PPFIBP1 | mean z-score = 1.29; z-score, replicate A = 1.43; z-score, replicate B = 1.36; z-score, replicate C = 1.08; Call = inactive
GUK1 | mean z-score = -0.68; z-score, replicate A = -0.95; z-score, replicate B = -0.65; z-score, replicate C = -0.43; Call = inactive
MAGI1 | mean z-score = -0.77; z-score, replicate A = -1.22; z-score, replicate B = -0.62; z-score, replicate C = -0.48; Call = inactive
RPL37 | mean z-score = -3.13; z-score, replicate A = -3.2; z-score, replicate B = -3.11; z-score, replicate C = -3.1; Call = inactive
PMEPA1 | mean z-score = -0.7; z-score, replicate A = -0.94; z-score, replicate B = -0.73; z-score, replicate C = -0.43; Call = inactive
BLCAP | mean z-score = -0.42; z-score, replicate A = -0.46; z-score, replicate B = -0.29; z-score, replicate C = -0.51; Call = inactive
